Test results from PMC5285506.
The exact form of at least one protein or probe is not confirmed. Where a protein sequence is shown, tags need not be part of it.

Tested on: T1, Rob
T1 sequence (looked up): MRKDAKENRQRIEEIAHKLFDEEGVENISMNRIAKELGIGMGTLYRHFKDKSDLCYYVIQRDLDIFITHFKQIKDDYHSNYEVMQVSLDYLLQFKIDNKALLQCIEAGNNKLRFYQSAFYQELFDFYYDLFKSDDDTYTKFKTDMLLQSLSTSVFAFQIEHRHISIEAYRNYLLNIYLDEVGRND
Experiment: EMSA
Settings: 0.1-1.5 ug Rob, outcompeted by 100-fold unlabeled specific DNA; 10 mM HEPES pH 8.0, 60 mM KCl, 4 mM MgCl2, 0.1 mM EDTA, 0.1 mg/ml BSA, 0.25 mM DTT, 5% glycerol, 1 ug salmon sperm DNA and 1 ug poly(dI-dC) per 20 ul; recombinant protein; residues 1-185; protein details: His6 (pET-28a(+)); label: biotin 5' (ica-p-R); probe letters rebuilt from the primers and the genome

ATTGCGTTATCAATAATCTTATCCTTCAATTTTTATAACCCCCTACTGAAAATTAATCACACTATGTTACAGGAAAATTAAGTTGCAATTACAAATATTTCCGTTTAATTATAACAACAATCTATTGCAAATTAAAATACTATCAATTACCATATGGCTTACAACCTAACTAACGAAAGGTAGGTAAAGGAATTGCAA (double strand) [FULL (icaR-icaA intergenic, 198 bp)]
binding result: binds
